Compound potency records, mixed from different reports. Data source: NIAID ChemDB in PubChem.

Common to all: target-level tests; species: Candida albicans

Lines come from different laboratories, so protocols vary.

smiles,strain,protein,endpoint,tested at,value
Cc1cc(Cl)cc2c(C(=O)O)cc(-c3ccc(Br)cc3)nc12,-,Prolyl-tRNA synthetase,IC50,-,0.005 µM
Clc1ccc(COC(Cn2ccnc2)c2ccc(Cl)cc2Cl)c(Cl)c1,652,Lanosterol 14-alpha demethylase,IC50,-,0.32 µM
COc1cc(Cc2cnc(N)nc2N)cc(OC)c1OCCCNc1ccc(S(=O)(=O)c2ccc(N)cc2)cc1,-,Dihydrofolate reductase,IC50,-,0.29 µM
C=C1CC[C@H]2C(C)(C)CCC[C@]2(C)[C@H]1C/C(OS(=O)(=O)[O-])=C(\C)CCC/C(C)=C/Cc1cc(O)ccc1O.[Na+],ATCC 10231,Isocitrate lyase,IC50,-,54.1 µg/mL
CCCCNC(=O)[C@@H](C[C@H](O)[C@H](CC1CCCCC1)NC(=O)[C@@H](CCCC)N1CCN(C(=O)N2CCN(C)CC2)[C@H](Cc2ccccc2)C1=O)C(C)C,-,Secreted aspartic proteinase,IC50,-,0.025 µM
c1ccc2c(c1)-c1nccc3ccnc-2c13,-,Topoisomerase I,IC50,-,20 µM
COCCCOc1cc(C[C@@H](C[C@H](N)[C@@H](O)C[C@H](C(=O)NCC(C)(C)C(N)=O)C(C)C)C(C)C)ccc1OC,MTCC-227(ATCC 10231),Secreted aspartic protease,inhibition,500 µg/mL,>50%
OC(Cn1cncn1)(Cn1cncn1)c1ccc(F)cc1F,652,Lanosterol 14-alpha demethylase,IC50,-,0.065 µM
CCC(C)CC(C)CCCCCCCCC(=O)NC1C[C@@H](O)[C@@H](O)NC(=O)[C@@H]2[C@@H](O)CCN2C(=O)[C@H]([C@@H](O)CC(N)=O)NC(=O)[C@H]([C@H](O)[C@@H](O)c2ccc(OP(=O)([O-])O)cc2)NC(=O)[C@@H]2C[C@@H](O)CN2C(=O)[C@H]([C@H](C)O)NC1=O.[Na+],MY1028,Beta-(1 3)-glucan synthase,IC50,-,>10 µM
CC(=O)N[C@@H](CO)[C@@H](O)[C@H](O)[C@H](O)COP(=O)(O)O,-,Phosphoglucose isomerase,IC50,-,76 µM
CCCCC/C=C\C=C\C(=O)OC[C@H]1O[C@@H](O[C@H]2[C@H](OC(=O)/C(C)=C/C=C/CC(O)C(C)CC)[C@@H](O)[C@H](c3c(O)cc(O)cc3CO)O[C@@H]2CO)[C@H](O)[C@@H](O)[C@H]1O,-,Glucan synthase,IC50,-,12.9 µg/mL
O=C1NC(=O)c2c1c1c3ccccc3[nH]c1c1c2c2ccccc2n1[C@@H]1O[C@H](CO)[C@@H](O)[C@H](O)[C@H]1O,-,Protein kinase C,IC50,-,>100 µM
CCCCNC[C@@H](C[C@H](O)[C@H](CC1CCCCC1)NC(=O)[C@H](CCCC)N1CCN(C(=O)N2CCN(C)CC2)[C@@H](Cc2ccccc2)C1=O)C(C)C,-,Secreted aspartic proteinase,IC50,-,0.49 µM
CC1=CC[C@H]2C(C)(C)CCC[C@]2(C)[C@H]1C/C(OS(=O)(=O)[O-])=C(\C)CCC/C(C)=C/Cc1cc(O)ccc1O,ATCC 10231,Isocitrate lyase,IC50,-,>100 µg/mL
CC(CCC1[NH2+]C1(C)C)C1CC[C@@]2(C)C3=C(CCC12C)C1(C)CCC(O)C(C)(C)C1CC3,-,C24-methyltransferase,IC50,-,5 µM
O=C(CCCCSc1nc(-c2ccccc2)cc(=O)[nH]1)NO,-,HDAC enzyme,IC50,-,0.003 µg/mL

2 of the rows above, restated:

smiles | strain | protein | endpoint | tested at | value
CC(CCC1[NH2+]C1(C)C)C1CC[C@@]2(C)C3=C(CCC12C)C1(C)CCC(O)C(C)(C)C1CC3 | - | C24-methyltransferase | IC50 | - | 5 µM
CC1=CC[C@H]2C(C)(C)CCC[C@]2(C)[C@H]1C/C(OS(=O)(=O)[O-])=C(\C)CCC/C(C)=C/Cc1cc(O)ccc1O | ATCC 10231 | Isocitrate lyase | IC50 | - | >100 µg/mL

ICn is the concentration giving n% inhibition. Percent inhibition refers to the dose given; in toxicity tests it is the harm to the cells. Blank or dashed fields: not listed here.